A mixed list of measured activities; the numbers were collected in NIAID ChemDB.

Common to all: growth or infection tests; species: Punta Toro virus; endpoint: EC50

Neighbouring rows are from separate reports. ECn: concentration that inhibits the pathogen or its effect by n%. An empty or dashed field is not shown.

SMILES | strain | read by | cell line | value
OC[C@H]1O[C@H](c2cc(Cl)c(F)cc2F)C[C@@H]1O | - | cytopathic effect | VERO | >80 µg/mL
CC1(C)[C@@H](CO)CC[C@@]1(C)Cn1cc(I)c(=O)[nH]c1=O | - | cytopathic effect | VERO | >400 µg/mL
Cc1cn([C@H]2OC[C@@H](CO)C2F)c(=O)[nH]c1=O | - | cytopathic effect | VERO | >80 µg/mL
CSc1ncnc2c1cnn2Cc1cnnn1CCCCO | - | - | VERO | >400 µg/mL
CCCCCCCCN=C(N)c1ncn([C@@H]2O[C@H](CO)[C@@H](O)[C@H]2O)n1 | Adames | cytopathic effect | VERO | >1000 µg/mL
OCCCCn1cc(Cn2ncc3c(SCc4ccccc4)ncnc32)nn1 | - | - | VERO | >400 µg/mL
COC(=N)c1ncn([C@@H]2O[C@H](CO)[C@@H](O)[C@H]2O)n1 | Adames | cytopathic effect | VERO | 201 µg/mL
Nc1nc2c(ncn2[C@H]2OC[C@@H](CO)C2O)c(=O)[nH]1 | - | cytopathic effect | VERO | >16 µg/mL
N=C(N)c1ncn([C@@H]2O[C@H](CO)[C@@H](O)[C@H]2O)n1 | Adames | - | LLC-MK2 | 8 µg/mL
NC(=O)CSc1ncnc2c1cnn2COCC(O)CO | - | cytopathic effect | VERO | >400 µg/mL
Cc1cn([C@@H]2OC[C@H](CO)[C@H]2O)c(=O)[nH]c1=O | - | cytopathic effect | VERO | >80 µg/mL
NC(=O)CSc1ncnc2c1cnn2COCCO | - | cytopathic effect | VERO | >400 µg/mL
CC1(C)[C@@H](CO)CC[C@@]1(C)Cn1cc(Br)c(=O)[nH]c1=O | - | cytopathic effect | VERO | >400 µg/mL
CNC(=O)c1ncn([C@@H]2O[C@H](CO)[C@@H](O)[C@H]2O)n1 | Adames | cytopathic effect | VERO | >320 µg/mL
CC(Sc1ncnc2c1cnn2CCCCO)C(N)=O | - | cytopathic effect | VERO | >400 µg/mL
CN[C@H]1C[C@@H](n2cnc3c(N)ncnc32)[C@H](O)[C@@H]1O | - | - | HFF | >100 µg/mL
COc1ncnc2c1cnn2Cc1cn(CCCCO)nn1 | - | - | VERO | >400 µg/mL
CC1(C)[C@@H](CO)CC[C@@]1(C)Cn1cnc2c(=O)[nH]cnc21 | - | cytopathic effect | VERO | >400 µg/mL

A second listing of 2 rows from above:

Cc1cn([C@@H]2OC[C@H](CO)[C@H]2O)c(=O)[nH]c1=O ; read by: cytopathic effect ; cell line: VERO ; value: >80 µg/mL
CSc1ncnc2c1cnn2Cc1cnnn1CCCCO ; cell line: VERO ; value: >400 µg/mL